Data on 1 molecule can be found in BindingDB's records for 17629261.

Sequences of proteins named here, by UniProt entry; tags and fusion partners are left off. Residues count along the entry.
UniProt O69002, 1-198: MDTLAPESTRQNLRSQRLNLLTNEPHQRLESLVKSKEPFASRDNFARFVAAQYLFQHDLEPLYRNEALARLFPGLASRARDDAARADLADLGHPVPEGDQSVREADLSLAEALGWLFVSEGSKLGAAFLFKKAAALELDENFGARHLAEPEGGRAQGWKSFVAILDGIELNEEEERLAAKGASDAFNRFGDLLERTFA

The target in the assay is Iron-starvation protein PigA (Pseudomonas aeruginosa, UniProt O69002). Nature of the assay: Binding affinity to Pseudomonas aeruginosa heme oxygenase.

A word on the Kd: it is the constant that tells how readily two partners part at equilibrium. Regarding `NCc1ccc([N+](=O)[O-])cc1[N+](=O)[O-]`, the equilibrium dissociation constant (Kd) worked out at 187 µM.
